Assay results from US20060263870A1, “Hydrocarbon processing method and hydrocarbon processing system” (NIHON UNIVERSITY, priority 2005, published 2006).

System: Rhodococcus rhodochrous S-2
Test: Treatment of various hydrocarbons: growth and localization of S-2 in organic solvent/IB medium bilayer culture
Format: cell-based
Conditions: hydrocarbon 5% (v/v) in IB medium, 28° C., 110 rpm, third day of culturing
Procedure: IB liquid medium was prepared as shown below.
As n-alkanes, n-hexane (C6), n-octane (C8), n-nonane (C9), n-decane (C10), n-undecane (C11), n-dodecane (C12), n-tridecane (C13), n-tetradecane (C14), n-pentadecane (C15), n-hexadecane (C16), n-heptadecane (C17), and n-octadecane (C18) were used.
As test strains, Rhodococcus erythropolis PR-4 and Rhodococcus rhodochrous S-2 were used.
On the third day after the start of culturing, the growth status of the test bacteria and sites where the test bacteria had localized were observed. When the test bacteria were present in the organic solvent, they were labeled “inside” and when they were present on the surface of the organic solvent, they were labeled “surface.” The results are shown in Table 1.

Compound	S-2 localization
CCCCCCCCCCCCCCCC [n-hexadecane]	surface
CC(C)CCCC(C)CCCC(C)CCCCC(C)CCCC(C)CCCC(C)C (stereo not drawn) [n-squalane, squalane]	surface
CCCCCCCCCCCCCC [n-tetradecane]	surface
